Measured values from several laboratories, pooled; numbers as filed in NIAID ChemDB.

All rows: growth or infection tests; agent: Influenza B virus; cells: MDCK; read-out: EC50

Lines come from different laboratories, so protocols vary. Blank or dashed fields: not listed here. a–b is a range or a potency band. ECn is the concentration giving n% inhibition of infection, replication or growth.

compound | strain or isolate | method | value
CC1=C(C)C2(C)C(N)C1[C@H](C(C)C)C[C@H]2C | - | plaque count | 45.1 µM
CC(=O)N[C@H]1[C@H]([C@H](O)[C@H](O)CO)OC(C(=O)O)=C[C@@H]1N=C(N)N | Harbin/07/94 | - | 0.2 µM
C[C@@H]1C2CCCC(C2N)[C@@H]1c1ccccc1 | - | plaque count | >100 µM
CC=NC(=N)c1nc(-c2ccc(C)cc2)n(COCCO)n1 | Singapore | cytopathic effect | >100 µg/mL
Nc1ccn([C@@H]2C=C(CO)[C@@H](O)[C@H]2O)c(=O)n1 | - | cytopathic effect | 4.5 µg/mL
CC(C)[C@@H]1CCC2(C)C(N)C1[C@H](C)[C@@H]2C | - | plaque count | >50 µM
C=C[C@@H](O)C1=C[C@@H](n2cnc3c(N)ncnc32)[C@H](O)[C@@H]1O | HONG KONG | cytopathic effect | >50 µg/mL
CC1(CO)CCC(Cn2ccc(=O)[nH]c2=O)C1(C)C | HONG KONG/5/72 | cytopathic effect | >250 µg/mL
CCOC(=O)NC(N)=N[C@H]1C=C(C(=O)O)O[C@@H]([C@H](O)[C@H](O)CO)[C@@H]1NC(C)=O | B/Victoria/102/85 | plaque count | 0.5 µg/mL
Nc1ncnc2c1ncn2[C@@H]1O[C@H](C=NOCc2ccccc2)[C@@H](O)[C@H]1O | Singapore | cytopathic effect | 20 µg/mL
CC1(CO)CCC(Cn2nnc3c(N)ncnc32)C1(C)C | HONG KONG/5/72 | cytopathic effect | >50 µg/mL
CC(C)C1CC(CO)(CNc2cc(Cl)nc(N)n2)C1 | B/GIFU/2/73 | plaque count | 2.1–2.5 µM
COc1ccccc1CNC(=O)C1=Cc2ccncc2CC1 | - | cytopathic effect | 158 µM
CC(O)C1(CNc2cc(Cl)nc(N)n2)CCC1 | B/GIFU/2/73 | plaque count | 55 µM
CCOC(=O)c1cc(C#N)c2[nH]c3ccccc3n2c1=O | B/Singapore | plaque count | 200 µg/mL
CCCOc1ncn(-c2ccc(NC(=S)NC3O[C@H](CO)[C@@H](O)[C@H](O)[C@H]3O)cc2)n1 | Singapore | cytopathic effect | >200 µg/mL
CCCC(CCC)C(NC(C)=O)C1C(N=C(N)N)CC(C(=O)O)C1O | Harbin/07/94 | - | 0.06 µM
CCC(CC)O[C@@H]1C=C(C(=O)O)C[C@H](N)[C@H]1NC(C)=O | Isolate G62 | plaque count | 0.04 µg/mL
C=C(N=CC)c1nc(-c2ccc(OC)cc2)n(C2O[C@H](CO)[C@@H](O)[C@H](O)[C@H]2O)n1 | Singapore | cytopathic effect | >200 µg/mL
CC1=C(c2ccccc2)C2CCCC1C2N | - | plaque count | >100 µM
C[C@H](CO)[C@@H](OC(=O)N1CCNCC1)[C@@H]1OC(C(=O)O)=C[C@H](N=C(N)N)[C@H]1NC(=O)O | Victoria | plaque count | >0.1 µg/mL
CC1(CO)CCC(Cn2nnc3c(Cl)nc(N)nc32)C1(C)C | HONG KONG/5/72 | cytopathic effect | >50 µg/mL
C#C[C@H](O)C1=C[C@@H](n2cnc3c(N)ncnc32)[C@H](O)[C@@H]1O | HONG KONG | cytopathic effect | >50 µg/mL
CC1(CO)CCC(Cn2cnc3c(=O)[nH]cnc32)C1(C)C | HONG KONG/5/72 | cytopathic effect | >250 µg/mL
CC1(CO)CCC(Cn2nnc3c(N)nc(N)nc32)C1(C)C | HONG KONG/5/72 | cytopathic effect | >50 µg/mL
CCOc1ncn(-c2ccc(NC(=S)NC34CC5CC(CC(C5)C3)C4)cc2)n1 | Singapore | cytopathic effect | >200 µg/mL
N#CNc1nncs1 | B/Maryland/11/59 | plaque count | 0.75 µg/mL
C[C@H](CO)[C@@H](OC(=O)NCCO[C@@H]1O[C@@H](CO)[C@H](O)[C@@H](O)[C@H]1O)[C@@H]1OC(C(=O)O)=C[C@H](N=C(N)N)[C@H]1NC(=O)O | Victoria | plaque count | 0.88 µg/mL
CC1(CO)CCC(Cn2cnc3c(=O)[nH]c(N)nc32)C1(C)C | HONG KONG/5/72 | cytopathic effect | >50 µg/mL
C=C(N=CC)c1nc(-c2ccccc2)n(C2O[C@H](CO)[C@@H](O)[C@H](O)[C@H]2O)n1 | Singapore | cytopathic effect | >200 µg/mL
O=C(NCCc1ccccc1)C1=Cc2ccncc2CC1 | - | cytopathic effect | >344 µM
CCCOc1ncn(-c2ccc(NC(=S)Nc3cccc(O)c3)cc2)n1 | Singapore | cytopathic effect | >100 µg/mL
Nc1nc(NCC2(CO)CCC2)cc(=O)[nH]1 | B/GIFU/2/73 | plaque count | >130 µM
[N-]=C=Nc1nncs1 | B/Virginia/88 | virus yield | <1 µg/mL
CC(C)C1CC2C(N)C(C1)[C@H](C)[C@@H]2C | - | plaque count | 53 µM
C=C(N=CC)c1nc(-c2ccc(C)cc2)n([C@@H]2O[C@H](CO)[C@@H](O)[C@H]2O)n1 | Singapore | cytopathic effect | >200 µg/mL
CCC(CC)[C@H](NC(C)=O)[C@@H]1C[C@@H](C(=O)O)C[C@H]1N=C(N)N | Panama/45/90 | - | 2.8 µM
C[C@H](CO)[C@@H](OC(=O)NCCCCNCCN)[C@@H]1OC(C(=O)O)=C[C@H](N=C(N)N)[C@H]1NC(=O)O | Victoria | plaque count | 0.27 µg/mL
CCC(CC)O[C@@H]1C=C(C(=O)O)C[C@H](N)[C@H]1NC(C)=O | B/HONG KONG/5/72 | plaque count | 0.155 µM
C[C@H](CO)[C@@H](OC(=O)N(CCCN)CCCCN)[C@@H]1OC(C(=O)O)=C[C@H](N=C(N)N)[C@H]1NC(=O)O | Victoria | plaque count | 0.034 µg/mL
CC=NC(=N)c1nc(-c2cccc(OC)c2)n(Cc2ccccc2)n1 | Singapore | cytopathic effect | >100 µg/mL
CCC(CC)O[C@@H]1C=C(C(=O)O)C[C@H](N)[C@H]1NC(C)=O | B/Harbin/07.94 | - | 0.26 µM
C#C[C@@H](O)C1=C[C@@H](n2cnc3c(N)ncnc32)[C@H](O)[C@@H]1O | HONG KONG | cytopathic effect | >50 µg/mL
CC(C)CS[C@@H]1C[C@H](n2cnc3c(N)ncnc32)[C@@H](O)[C@H]1O | - | cytopathic effect | 37 µg/mL
Nc1nc2c(ncn2[C@@H]2O[C@H](CO)[C@@H](O)[C@H]2F)c(=O)[nH]1 | B/LEE/40 | plaque count | 11.5 µM
C=C(N=CC)c1nc(-c2ccccc2)n([C@@H]2O[C@H](CO)[C@@H](O)[C@H]2O)n1 | Singapore | cytopathic effect | >200 µg/mL
Nc1nc(Cl)cc(NC2(CO)CCC2)n1 | B/GIFU/2/73 | plaque count | 220 µM
CC=NC(=N)c1nc(-c2ccc(C)cc2)n(Cc2ccccc2)n1 | Singapore | cytopathic effect | >20 µg/mL
Nc1ncnc2c1ncn2[C@@H]1O[C@H](C=NO)[C@@H](O)[C@H]1O | Singapore | cytopathic effect | ≥0.8 µg/mL
CC1=C(C)C2(C)CC(C)(C)CC1C2N | - | plaque count | 36 µM
CC=NC(=N)c1nc(-c2cccc(C)c2)n(C/C=C/c2ccccc2)n1 | Singapore | cytopathic effect | >20 µg/mL
CCOc1ncn(-c2ccc(NC(=S)Nc3ncccn3)cc2)n1 | Singapore | cytopathic effect | >8 µg/mL
N#Cc1cc(NC(=O)c2ccccc2)c(=O)n2c1[nH]c1ccccc12 | B/Singapore | plaque count | 1.8 µg/mL
CCOc1ncn(-c2ccc(NC(=S)Nc3cccc(O)c3)cc2)n1 | Singapore | cytopathic effect | >200 µg/mL
C[C@@]1(O)CC2CCCC1C2N | - | plaque count | >100 µM

A second listing of 8 rows from above:

compound,strain or isolate,method,value
CCOc1ncn(-c2ccc(NC(=S)NC34CC5CC(CC(C5)C3)C4)cc2)n1,Singapore,cytopathic effect,>200 µg/mL
Nc1nc(Cl)cc(NC2(CO)CCC2)n1,B/GIFU/2/73,plaque count,220 µM
CC(C)C1CC(CO)(CNc2cc(Cl)nc(N)n2)C1,B/GIFU/2/73,plaque count,2.1–2.5 µM
CC1(CO)CCC(Cn2nnc3c(Cl)nc(N)nc32)C1(C)C,HONG KONG/5/72,cytopathic effect,>50 µg/mL
C[C@H](CO)[C@@H](OC(=O)N1CCNCC1)[C@@H]1OC(C(=O)O)=C[C@H](N=C(N)N)[C@H]1NC(=O)O,Victoria,plaque count,>0.1 µg/mL
CCCC(CCC)C(NC(C)=O)C1C(N=C(N)N)CC(C(=O)O)C1O,Harbin/07/94,-,0.06 µM
CCCOc1ncn(-c2ccc(NC(=S)NC3O[C@H](CO)[C@@H](O)[C@H](O)[C@H]3O)cc2)n1,Singapore,cytopathic effect,>200 µg/mL
Nc1ncnc2c1ncn2[C@@H]1O[C@H](C=NO)[C@@H](O)[C@H]1O,Singapore,cytopathic effect,≥0.8 µg/mL